Experiments:
[1] = system: Enterovirus 71 (EV71); experiment: Inhibition of EV71-induced cytopathogenicity (CPE) in RD cells, MTT; format: cell-based; conditions: selectivity index, ratio CC50/EC50, RD cells
Description: (§1) The antiviral activities of gramine and its derivatives against EV71 based on inhibition of virus-induced cytopathogenicity effects (CPEs) in African green monkey kidney cells (Vero) and rhabdomyosarcoma cells (RD) were examined. The cytotoxic effects were also evaluated. The inhibitory activities expressed as half maximal effective concentration (EC50) values and selectivity indexes (SI) for the target compounds are presented in Table 1, and the dose-dependent antiviral effects are shown in Figure 1A.
(§2) The activity of compounds against EV71 was determined based on the inhibition of virus-induced cytopathogenicity effects (CPEs) in acutely infected cells. Vero and RD cells grown to 90% confluency in 96-well dishes were washed with phosphate buffered saline (PBS) and infected with 100 TCID50 of EV71 mixed with serial dilutions of tested compounds for 1.5 h at 37 °C. The inoculum was aspirated and cells were incubated with DMEM and test compounds at 37 °C, 5% CO2 for 48 h. The CPEs were observed microscopically and the viability of the cells was determined with a 3-(4,5-dimethylthiazol-2-yl)-2,5-diphenyltetrazolium bromide (MTT) assay. The concentrations required for the test compounds to achieve 50% protection from virus-induced cytopathogenicity (EC50) were determined. Adverse effects of these compounds on the host cells were also assessed by means of the MTT-method; by exposing uninfected cells to various concentrations of test compounds for 48 h at 37 °C, the viability of the cells was detected. The 50% cell cytotoxic concentrations (CC50) of compounds were calculated with the SPSS software (SPSS, Chicago, IL, USA). Selectivity indexes were calculated as the ratio of CC50: EC50.
(§3) Cell viability was assessed by an MTT assay, which functions based on the reduction of a MTT into formazan dye by active mitochondria. The cells were treated with 100 µL of MTT (1 mg/mL, Sigma, St. Louis, MO, USA) and incubated at 37 °C for 4 h. The reaction was blocked by DMSO and measured in a microplate reader (Bio-Tek Instruments, Winooski, VT, USA) at 492 nm. The untreated control was arbitrarily set as 100%.

[2] = system: Enterovirus 71 (EV71); experiment: Inhibition of EV71-induced cytopathogenicity (CPE) in Vero cells, MTT; format: cell-based; conditions: selectivity index, ratio CC50/EC50, Vero cells
Description: as §1
Figure 1 Gramine and its synthetic derivatives inhibited virus-induced CPE. (A) Vero cells were infected with 100 TCID50 of EV71 mixed with serial dilutions of tested compounds for 1.5 h at 37 °C; the inoculum was aspirated and cells were incubated with DMEM/tested compounds at 37 °C, 5% CO2 for 48 h pi. The viability of the cells was determined with an MTT assay; (B) Morphology image of Vero and RD cells treated with compounds 4a, 4i, 4r, and 4s for 48 h pi. (magnification, 20×).
as §2, §3

| SMILES | SI RD [1] | SI Vero [2] |
| --- | --- | --- |
| c1ccc(C(Nc2ccccn2)c2c[nH]c3ccccc23)cc1 (stereo not shown) [Compound 4a] | 3.1 | 2.6 |
| Clc1ccccc1C(Nc1ccccn1)c1c[nH]c2ccccc12 (stereo not shown) [Compound 4b] | 3.1 | 3.6 |
| Clc1ccc(C(Nc2ccccn2)c2c[nH]c3ccccc23)cc1 (stereo not shown) [Compound 4c] | 3.7 | 4.0 |
| Fc1ccccc1C(Nc1ccccn1)c1c[nH]c2ccccc12 (stereo not shown) [Compound 4d] | 4.8 | 4.1 |
| Fc1ccc(C(Nc2ccccn2)c2c[nH]c3ccccc23)cc1 (stereo not shown) [Compound 4e] | 4.8 | 5.6 |
| Cn1cc(C(Nc2ccccn2)c2ccccc2Cl)c2ccccc21 (stereo not shown) [Compound 4f] |  | 6.0 |
| Cn1cc(C(Nc2ccccn2)c2ccc(Cl)cc2)c2ccccc21 (stereo not shown) [Compound 4g] | 6.5 | 7.9 |
| Cn1cc(C(Nc2ccccn2)c2ccccc2F)c2ccccc21 (stereo not shown) [Compound 4h] | 4.7 | 8.5 |
| Cn1cc(C(Nc2ccccn2)c2ccc(F)cc2)c2ccccc21 (stereo not shown) [Compound 4i] | 10.7 | 12.9 |
| FC(F)(F)c1ccc(C(Nc2ccccn2)c2c[nH]c3ccccc23)cc1 (stereo not shown) [Compound 4j] | 2.1 | 1.8 |
| Cn1cc(C(Nc2ccccn2)c2ccc(C(F)(F)F)cc2)c2ccccc21 (stereo not shown) [Compound 4k] | 2.8 | 1.4 |
| Cn1cc(C(Nc2ccccn2)c2ccncc2)c2ccccc21 (stereo not shown) [Compound 4o] | 4.1 | 4.3 |
| Clc1ccccc1C(Nc1nc2ccccc2s1)c1c[nH]c2ccccc12 (stereo not shown) [Compound 4p] | 3.7 | 3.1 |
| Fc1ccccc1C(Nc1nc2ccccc2s1)c1c[nH]c2ccccc12 (stereo not shown) [Compound 4q] | 5.4 | 6.0 |
| Cn1cc(C(Nc2nc3ccccc3s2)c2ccccc2F)c2ccccc21 (stereo not shown) [Compound 4r] | 20.5 | 13.4 |
| c1ccc(C(Nc2nc3ccccc3s2)c2c[nH]c3ccccc23)nc1 (stereo not shown) [Compound 4s] | 15.0 | 14.3 |
| Fc1ccc(C(c2c[nH]c3ccccc23)n2cccn2)cc1 (stereo not shown) [Compound 4t] | 4.8 | 5.5 |
| Fc1ccc(C(c2c[nH]c3ccccc23)n2cncn2)cc1 (stereo not shown) [Compound 4u] | 2.2 | 2.1 |
| NC(=O)c1ncn([C@@H]2O[C@H](CO)[C@@H](O)[C@H]2O)n1 [ribavirin, reference compound] | 13.6 | >11 |

Reference: publication PMC6271245, “Discovery of Gramine Derivatives That Inhibit the Early Stage of EV71 Replication in Vitro” (Molecules, 2014)
